Drawing on PubChem BioAssay AID2305 (GlaxoSmithKline (GSK), 2010), this text covers IC50 for 2 compounds.

The test system of the assay is P. falciparum 3D7 growth, pLDH absorbance. The assay is described as follows: blood-stage malaria parasite growth potency – strain 3D7, dose response (AID 2305).

Compound `Cn1c(=O)n(C2CCN(CCCC(c3ccc(F)cc3)c3ccc(F)cc3)CC2)c2ccccc21` registered a half-inhibitory concentration (IC50) of 0.84 µM. In other words, the sub-micromolar range. Then `CC(C)(C)c1cc2cc(N(C(=O)c3ccc(C(F)(F)F)cc3)C3CCN(Cc4ccccc4)CC3)ccc2[nH]1`, with 1.19 µM.

Broadly, the IC50 is the concentration that gives 50% inhibition.
